# Laboratory results: article PMC6340165, “A GntR Family Transcription Factor in Streptococcus mutans Regulates Biofilm Formation and Expression of Multiple Sugar Transporter Genes”
# Target: T1, StsR (GntR family regulator) (Streptococcus mutans UA159) (UniProt Q8DTX4)
# T1 sequence: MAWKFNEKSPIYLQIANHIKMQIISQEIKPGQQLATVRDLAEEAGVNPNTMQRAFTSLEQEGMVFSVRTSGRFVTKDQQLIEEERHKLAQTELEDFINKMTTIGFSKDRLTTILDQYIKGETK
# Assay: EMSA
# Details: 20 pmol DNA, 20-40 pmol StsR; 50 mM Tris/HCl, 10 mM NaCl, 0.1 mM EDTA, 5% glycerol, 30 min, 10 uL; 4% native PAGE in 0.5x TBS; recombinant protein; residues 1-123; protein details: His6 (pET28a); probe letters rebuilt from the primers and the genome
sequence,measurement,value
CTCCGTAGAGATTATCTCCATCCATAATACCAATATGCGAATAGCCCATCTCCTTAGCTTTCTTAATATAAGATTTTAAGTCAATCAGGCTATCCATAAAACTATAAACGGTTTTAGTATCTAATTGTGCAAACACTTCTGTCTCCTTAAGATCTACTTACTTTTATTATACTACAAATCCTTAAAATCCTCTTACTCTTTCATTTAATTCTACTAAATCTCATCAGTCTAAATTTACCACTTGACAATATTTTACTATAATTGTATTATATATATAACACAATTATACACTGCACTTTAGAAAGGAGAAAAAATGGCT (double strand) [stsR promoter],binding result,binds
